Measured values from several laboratories, pooled; numbers as filed in NIAID ChemDB.

Common to all: whole-cell or culture tests; agent: Aspergillus fumigatus; measure: zone

Blank or dashed fields: not listed here. Neighbouring rows are from separate reports. a–b is a range or a potency band. Zones are inhibition diameters on agar.

structure,strain,read by,tested at,result
C[C@@H]1[C@@H](COCC(=O)O)C[C@@H](O[C@H]2[C@H](O)[C@@H](N(Cc3ccc(N(C)C)cc3)CC(O)C[N+](C)(C)C)[C@H](O[C@H]3[C@H](O)[C@@H](N(Cc4ccc(N(C)C)cc4)CC(O)C[N+](C)(C)C)[C@H](C)O[C@@H]3COCC(=O)O)O[C@@H]2COCC(=O)O)[C@H](N(Cc2ccc(N(C)C)cc2)CC(O)C[N+](C)(C)C)[C@H]1O,RCMB 02568,agar diffusion,1 mg/mL,21.2 mm
COC(=O)N[C@H](C(=O)NN(CCC[C@@]1(Cc2ccccc2)C(=O)N(C2c3ccccc3C[C@H]2O)C[C@H]1O)Cc1ccc(-c2ccccn2)cc1)C(C)(C)C,RCMB 002003,agar diffusion / agar,10 mg/mL,18.8 mm
O=C(c1cn2cnnc2nn1)c1nn(-c2ccccc2)cc1-c1ccc([N+](=O)[O-])cc1,-,agar diffusion / agar,5 mg/mL,16 mm
C[C@@H]1[C@@H](COCC(=O)O)C[C@@H](O[C@H]2[C@H](O)[C@@H](N(Cc3ccc(Cl)cc3)CC(O)C[N+](C)(C)C)[C@H](O[C@H]3[C@H](O)[C@@H](N(Cc4ccc(Cl)cc4)CC(O)C[N+](C)(C)C)[C@H](C)O[C@@H]3COCC(=O)O)O[C@@H]2COCC(=O)O)[C@H](N(Cc2ccc(Cl)cc2)CC(O)C[N+](C)(C)C)[C@H]1O,RCMB 02568,agar diffusion,1 mg/mL,16.3 mm
CCOC(=O)C[C@H](O)C[C@H](O)CC[C@@H]1[C@@H]2C(=CCC[C@@H]2C(=O)O[C@H](C)CC)C=C[C@@H]1C,-,agar diffusion,1 mg/disc,0 mm
C[C@@H]1[C@@H](COCC(=O)O)C[C@@H](O[C@H]2[C@H](O)[C@@H](N(Cc3ccc(O)cc3)CC(O)C[N+](C)(C)C)[C@H](O[C@H]3[C@H](O)[C@@H](N(Cc4ccc(O)cc4)CC(O)C[N+](C)(C)C)[C@H](C)O[C@@H]3COCC(=O)O)O[C@@H]2COCC(=O)O)[C@H](N(Cc2ccc(O)cc2)CC(O)C[N+](C)(C)C)[C@H]1O,RCMB 02568,agar diffusion,1 mg/mL,14.8 mm
CCC(C)CCCCCCCCCCC(=O)N[C@H]1C[C@@H](O)[C@@H](SCC(=O)OC)NC(=O)C2[C@@H](O)[C@@H](C)CN2C(=O)C(CO)NC(=O)C([C@H](O)C(O)c2ccc(O)cc2)NC(=O)NC(=O)[C@@H]2C[C@@H](O)CN2C(=O)[C@H]([C@@H](C)O)NC1=O,AF-1,agar,1 mg/mL,20 mm
C[C@@H]1[C@@H](COCC(=O)O)C[C@@H](O[C@H]2[C@H](O)[C@@H](N(Cc3cccs3)CC(O)C[N+](C)(C)C)[C@H](O[C@H]3[C@H](O)[C@@H](N(Cc4cccs4)CC(O)C[N+](C)(C)C)[C@H](C)O[C@@H]3COCC(=O)O)O[C@@H]2COCC(=O)O)[C@H](N(Cc2cccs2)CC(O)C[N+](C)(C)C)[C@H]1O,RCMB 02568,agar diffusion,1 mg/mL,19.2 mm
CCC(C)CCCCCCCCCCC(=O)N[C@H]1C[C@@H](O)[C@@H](NCCN2CCOCC2)NC(=O)C2[C@@H](O)[C@@H](C)CN2C(=O)C(CO)NC(=O)C([C@H](O)C(NCCN2CCOCC2)c2ccc(O)cc2)NC(=O)NC(=O)[C@@H]2C[C@@H](O)CN2C(=O)[C@H]([C@@H](C)O)NC1=O,AF-1,agar,2 mg/mL,13 mm
CC(=O)C1=NN(c2ccccc2)C2=Nc3nccc(-c4nn(-c5ccccc5)cc4-c4ccc([N+](=O)[O-])cc4)c3C(=O)C12,-,agar diffusion / agar,1.25 mg/mL,3 mm
COC(=O)N[C@H](C(=O)NN(CC[C@@]1(Cc2ccccc2)C(=O)N(C2c3ccccc3C[C@H]2O)C[C@@H]1O)Cc1ccc(Br)cc1)C(C)(C)C,RCMB 002003,agar diffusion / agar,10 mg/mL,18.8 mm
CCC(C)CCCCCCCCCCC(=O)N[C@H]1C[C@@H](O)[C@@H](O)NC(=O)C2[C@@H](O)[C@@H](C)CN2C(=O)C(CO)NC(=O)C([C@H](O)C(O)c2ccc(O)cc2)NC(=O)NC(=O)[C@@H]2C[C@@H](O)CN2C(=O)[C@H]([C@@H](C)O)NC1=O,AF-1,agar,1 mg/mL,29 mm
COC(=O)N[C@H](C(=O)NN(CC[C@@]1(Cc2ccccc2)C(=O)N(C2c3ccccc3C[C@H]2O)C[C@H]1O)Cc1ccc(Br)cc1)C(C)(C)C,RCMB 002003,agar diffusion / agar,10 mg/mL,18.8 mm
CCC(C)CCCCCCCCCCC(=O)N[C@H]1C[C@@H](O)[C@@H](S(=O)(=O)CC(=O)OC)NC(=O)C2[C@@H](O)[C@@H](C)CN2C(=O)C(CO)NC(=O)C([C@H](O)C(O)c2ccc(O)cc2)NC(=O)NC(=O)[C@@H]2C[C@@H](O)CN2C(=O)[C@H]([C@@H](C)O)NC1=O,AF-1,agar,1 mg/mL,20 mm
Cc1ccc(-n2cc(-c3ccc([N+](=O)[O-])cc3)c(-c3ccon3)n2)cc1,-,agar diffusion / agar,1.25 mg/mL,9 mm
CCC(C)CCCCCCCCCCC(=O)N[C@H]1C[C@@H](O)[C@@H]([n+]2cc[nH]c2)NC(=O)C2[C@@H](O)[C@@H](C)CN2C(=O)C(CO)NC(=O)C([C@H](O)C(O)c2ccc(O)cc2)NC(=O)NC(=O)[C@@H]2C[C@@H](O)CN2C(=O)[C@H]([C@@H](C)O)NC1=O,AF-1,agar,5 mg/mL,30 mm
Cc1ccc(-n2cc(-c3ccc([N+](=O)[O-])cc3)c(-c3ccnc4nncn34)n2)cc1,-,agar diffusion / agar,1.25 mg/mL,3 mm
COC(=O)N[C@H](C(=O)NN(CC[C@@]1(Cc2ccccc2)C(=O)N(C2c3ccccc3C[C@H]2O)C[C@@H]1O)Cc1ccc(-c2ccccn2)cc1)C(C)(C)C,RCMB 002003,agar diffusion / agar,10 mg/mL,18.8 mm
Cc1ccc(-n2cc(-c3ccc([N+](=O)[O-])cc3)c(C(=O)/C=C/N(C)C)n2)cc1,-,agar diffusion / agar,2.5 mg/mL,0 mm
CCC(C)CCCCCCCCCCC(=O)N[C@H]1C[C@@H](O)[C@@H](OC)NC(=O)C2[C@@H](O)[C@@H](C)CN2C(=O)C(CO)NC(=O)C([C@H](O)C(O)c2ccc(O)cc2)NC(=O)NC(=O)[C@@H]2C[C@@H](O)CN2C(=O)[C@H]([C@@H](C)O)NC1=O,AF-1,agar,2 mg/mL,24–37 mm

Repeating the final 2 entries:

structure	strain	read by	tested at	result
Cc1ccc(-n2cc(-c3ccc([N+](=O)[O-])cc3)c(C(=O)/C=C/N(C)C)n2)cc1	-	agar diffusion / agar	2.5 mg/mL	0 mm
CCC(C)CCCCCCCCCCC(=O)N[C@H]1C[C@@H](O)[C@@H](OC)NC(=O)C2[C@@H](O)[C@@H](C)CN2C(=O)C(CO)NC(=O)C([C@H](O)C(O)c2ccc(O)cc2)NC(=O)NC(=O)[C@@H]2C[C@@H](O)CN2C(=O)[C@H]([C@@H](C)O)NC1=O	AF-1	agar	2 mg/mL	24–37 mm